Measured values from several laboratories, pooled; numbers as filed in NIAID ChemDB.

Shared fields: whole-cell or culture tests; species: Candida parapsilosis

Lines come from different laboratories, so protocols vary. Zone: diameter of growth inhibition. Percent inhibition refers to the dose given; in toxicity tests it is the harm to the cells. An empty or dashed field is not shown. ECn: concentration that inhibits the pathogen or its effect by n%. A number after MIC or MFC names an inhibition level or a share of isolates.

compound	strain	method	conditions	dose	endpoint	result
CCCCCCCCCCCCC(=O)OC1CCN(CC(O)(Cn2cncn2)c2ccc(F)cc2F)CC1	0306392	broth dilution			MIC80	1.922 µM
CC(C)CC(C(=O)O)N1C(=O)C(C)SC1c1ccccc1		broth dilution			EC50	79.52 µM
Clc1ccc(C(c2ccccc2)N2CCN(CCn3cncn3)CC2)cc1		broth dilution			MFC	256 µg/mL
CCCCN(Cc1cn(Cc2ccccc2Br)nn1)CC(O)(Cn1cncn1)c1ccc(F)cc1F					MIC80	8 µg/mL
Nc1ncccc1-c1cc(Cc2ccc(COc3ccccn3)cc2)no1		broth dilution			MIC90	0.06 µg/mL
CC(C)S(=O)(=O)Nc1ccc(CN(C)CC(O)(Cn2cncn2)c2ccc(F)cc2F)cc1	CAPA2	resazurin			MIC	3.1 µg/mL
CCCCN(Cc1cn(Cc2c(Cl)cccc2Cl)nn1)CC(O)(Cn1cncn1)c1ccc(F)cc1F					MIC80	64 µg/mL
C[C@H]1[C@H](O)[C@@H](C)/C=C/C=C/C=C/C=C/C=C/C=C/C=C/[C@H](O[C@@H]2O[C@H](C)[C@@H](O)[C@H](N)[C@@H]2O)C[C@@H]2O[C@](O)(C[C@@H](O)C[C@@H](O)CC[C@H](O)[C@@H](O)C[C@@H](O)CC(=O)O[C@H]1C)C[C@H](O)[C@H]2C(=O)O		broth dilution			MIC50	0.5 µg/mL
O/N=C\c1ccccc1					MIC100	4130 µM
C=CC(C)(C)c1cc(C2CC(=O)c3c(cc(O)c(CC=C(C)C)c3O)O2)c(O)cc1O	hemoculture isolate 35416	agar diffusion / agar		2 mg/mL	zone	11 mm
CCCCCOc1ccc(-c2cc(-c3ccc(C(=O)N[C@H]4C[C@@H](O)[C@@H](O)NC(=O)[C@@H]5[C@@H](O)[C@@H](C)CN5C(=O)[C@H]([C@H](O)CC(N)=O)NC(=O)[C@H]([C@H](O)[C@@H](O)c5ccc(O)c(OS(=O)(=O)O)c5)NC(=O)[C@@H]5C[C@@H](O)CN5C(=O)[C@H]([C@@H](C)O)NC4=O)cc3)no2)cc1	RC-601	broth dilution			EC50	0.5 µg/mL
COc1ccc(/C=N/O)cc1					MIC100	3310 µM
Clc1ccc(C(c2ccccc2)n2cnc3ccccc32)cc1		broth dilution			MFC	>256 µg/mL
COc1ccc(/C=N\O)cc1		broth dilution			MFC	3310 µM
CC1(C)CC[C@]2(C(=O)O)CC[C@]3(C)C(=CC[C@@H]4[C@@]5(C)CC[C@H](OC6O[C@H](CO)[C@@H](O)[C@H](O)[C@H]6OC6O[C@H](CO)[C@@H](O)[C@H](O)[C@H]6O)[C@@](C)(CO)[C@@H]5CC[C@]43C)[C@@H]2C1	Clinical isolates				MFC	>100 µg/mL
CC(C)(C)C(=O)OC1CCN(CC(O)(Cn2cncn2)c2ccc(F)cc2F)CC1	0306392	broth dilution			MIC80	0.592 µM
C[C@@H]1CC(=O)N(c2ccc(Br)cc2)C1=O	CCC 124-2000	broth dilution / turbidity			MIC	62.5 µg/mL
O=C(O)CN1C(=O)CCSC1c1ccccn1		broth dilution			EC50	80.51 µM
CC1CC(=O)N(c2ccc(Cl)cc2)C1=O	CCC 124-2000	broth dilution / turbidity			MIC	250 µg/mL
CC(C)(O)c1cn(-c2cccc3ccccc23)nn1	URM 4889	broth dilution		2048 µg/mL	inhibition	0%
CN(Cc1ccc(S(=O)(=O)Nc2ccccc2)cc1)CC(O)(Cn1cncn1)c1ccc(F)cc1F	CAPA1	resazurin			MIC	0.1 µg/mL
C[C@@H]1CC(=O)N(CCCc2ccccc2)C1=O	CCC 124-2000	broth dilution / turbidity			MIC	125 µg/mL
CN[C@H]1CC[C@@H](c2ccc(Cl)c(Cl)c2)c2ccccc21	MMRL1594	broth dilution			MIC90	24 µg/mL
C[C@H]1[C@H](O)[C@@H](C)/C=C/C=C/C=C/C=C/C=C/C=C/C=C/[C@H](O[C@@H]2O[C@H](C)[C@@H](O)[C@H](N)[C@@H]2O)C[C@@H]2O[C@](O)(C[C@@H](O)C[C@@H](O)CC[C@H](O)[C@@H](O)C[C@@H](O)CC(=O)O[C@H]1C)C[C@H](O)[C@H]2C(=O)O	Cp1	agar diffusion		100 µg/disc	zone	33 mm
CC(C)(O)c1cn(-c2ccc([N+](=O)[O-])cc2)nn1	URM 3621	broth dilution		2048 µg/mL	inhibition	0%
O=C1C(=O)c2ccccc2C2=C1CC(CI)O2	Clinical isolate	broth dilution			MIC	25.4 µg/mL
C=CCc1ccc(OC)c(OC)c1	3277	turbidity			MIC90	350 µg/mL
CCOc1ccc2nc3cc(N=C4NC(=O)/C(=C\c5ccc([N+](=O)[O-])cc5)S4)ccc3c(N)c2c1		broth dilution			MFC	>1000 µg/mL
CCCCN(Cc1cn(Cc2ccc(Cl)cc2Cl)nn1)CC(O)(Cn1cncn1)c1ccc(F)cc1F					MIC80	8 µg/mL
CC1C(=O)N(Cc2ccccc2)C(=O)C1C	CCC 124-2000	broth dilution / turbidity			MIC	125 µg/mL
O=C(O[C@@H]1COC(=O)c2cc(O)c(O)c(O)c2-c2c(cc(O)c(O)c2O)C(=O)OC1C1OC(=O)c2cc(O)c(O)c(O)c2-c2c(O)c(O)c(O)c3c2C(=O)OC1[C@H]3O)c1cc(O)c(O)c(O)c1	ATCC 22019	broth dilution			MIC100	580 µg/mL
C[C@@H]1O[C@@H](O[C@H]2[C@H](O)[C@@H](O)C(OC3[C@H](O[C@H]4CC[C@@]5(C)[C@@H](CC[C@]6(C)[C@@H]5CC=C5[C@@H]7CC(C)(C)CC[C@]7(C(=O)O)CC[C@]56C)[C@]4(C)CO)OC[C@H](O)[C@@H]3O)O[C@@H]2CO)[C@H](O)[C@H](O)[C@H]1O	Clinical isolates				MFC	12.5 µg/mL
C[C@H]1[C@H](O)[C@@H](C)/C=C/C=C/C=C/C=C/C=C/C=C/C=C/[C@H](O[C@@H]2O[C@H](C)[C@@H](O)[C@H](N)[C@@H]2O)C[C@@H]2O[C@](O)(C[C@@H](O)C[C@@H](O)CC[C@H](O)[C@@H](O)C[C@@H](O)CC(=O)O[C@H]1C)C[C@H](O)[C@H]2C(=O)O	MTCC 1965	broth dilution			MIC100	0.5 µg/mL
COC(=O)CN(CCCOc1ccccc1)CC(O)(Cn1cncn1)c1ccc(F)cc1F					EC80	>64 µg/mL
O=C(c1ccccc1)C(c1ccccc1)n1cncn1		agar			MIC90	64 µg/mL
CC1CC(=O)N(c2ccc(F)cc2F)C1=O	CCC 124-2000	broth dilution / turbidity			MIC	250 µg/mL
N#Cc1ccc(/C=C/C(=O)OC2CCN(CC(O)(Cn3cncn3)c3ccc(F)cc3F)CC2)cc1	0306392	broth dilution			MIC80	0.507 µM
c1ccc(C(c2ccccc2)n2ccnc2)cc1		broth dilution			MFC	16 µg/mL
CCC(C)n1ncn(-c2ccc(N3CCN(c4ccc(OC[C@H]5CO[C@](Cn6cncn6)(c6ccc(Cl)cc6Cl)O5)cc4)CC3)cc2)c1=O		broth dilution			MIC90	0.13 µg/mL
C[C@H]1[C@H](O)[C@@H](C)/C=C/C=C/C=C/C=C/C=C/C=C/C=C/[C@H](O[C@@H]2O[C@H](C)[C@@H](O)[C@H](N)[C@@H]2O)C[C@@H]2O[C@](O)(C[C@@H](O)C[C@@H](O)CC[C@H](O)[C@@H](O)C[C@@H](O)CC(=O)O[C@H]1C)C[C@H](O)[C@H]2C(=O)O	MTCC 1965	visual reading			MFC	1 µg/mL
CC1(C)CC[C@]2(C(=O)O)CC[C@]3(C)C(=CC[C@@H]4[C@@]5(C)CC[C@H](O[C@@H]6OC[C@H](O)[C@H](O)C6O)[C@@](C)(CO)[C@@H]5CC[C@]43C)[C@@H]2C1	Clinical isolates				MFC	>100 µg/mL
C[C@@H](c1ncncc1F)[C@](O)(Cn1cncn1)c1ccc(F)cc1F		broth dilution			MIC50	0.016 µg/mL
CCCCN(Cc1cn(Cc2cccc(Cl)c2)nn1)CC(O)(Cn1cncn1)c1ccc(F)cc1F					MIC80	0.25 µg/mL
COc1ccccc1C1SCC(=O)N1C(C)C(=O)O		broth dilution			EC50	79.61 µM
O=C(Cc1ccccc1)OC1CCN(CC(O)(Cn2cncn2)c2ccc(F)cc2F)CC1	0306392	broth dilution			MIC80	0.137 µM
CC[C@@H]([C@H](C)O)n1ncn(-c2ccc(N3CCN(c4ccc(OC[C@@H]5CO[C@@](Cn6cncn6)(c6ccc(F)cc6F)C5)cc4)CC3)cc2)c1=O		broth dilution			MIC50	0.12 µg/mL
CC(C(=O)O)N1C(=O)CSC1c1ccc(Cl)cc1		broth dilution			EC50	79.61 µM
Cc1ccc(-c2c3c(N)c4c(nc3nc3c2c(C)nn3-c2ccccc2)CCCCC4)cc1	CCC 124	broth dilution / absorbance			MIC100	125 µg/mL
C[C@H]1[C@H](O)[C@@H](C)/C=C/C=C/C=C/C=C/C=C/C=C/C=C/[C@H](O[C@@H]2O[C@H](C)[C@@H](O)[C@H](N)[C@@H]2O)C[C@@H]2O[C@](O)(C[C@@H](O)C[C@@H](O)CC[C@H](O)[C@@H](O)C[C@@H](O)CC(=O)O[C@H]1C)C[C@H](O)[C@H]2C(=O)O	ATCC 22019	broth dilution / absorbance			MIC99	0.78 µM
O=C(/C=C/c1ccccc1)OC1CCN(CC(O)(Cn2cncn2)c2ccc(F)cc2F)CC1	0306392	broth dilution			MIC80	0.008 µM
c1ccc(C(c2ccccc2)n2nnc3ccccc32)cc1		agar			MIC90	>256 µg/mL
C[C@@H]1O[C@@H](O[C@H]2[C@H](O[C@H]3CC[C@@]4(C)[C@@H](CC[C@]5(C)[C@@H]4CC=C4[C@@H]6CC(C)(C)CC[C@]6(C(=O)O)CC[C@]45C)[C@]3(C)CO)OC[C@H](O)[C@@H]2O)[C@H](O)[C@H](O)[C@H]1O	Clinical isolates				MFC	100 µg/mL
CC(C)(O)c1cn(-c2ccc3ccccc3c2)nn1	URM 3621	broth dilution		2048 µg/mL	inhibition	0%
O=C(OC1CCN(CC(O)(Cn2cncn2)c2ccc(F)cc2F)CC1)C(F)(F)F	0306392	broth dilution			MIC80	9.214 µM
S=C(S)n1nnc2ccccc21		broth dilution / absorbance	48 h		EC50	>50 µg/mL
O=C(c1ccccc1)C(c1ccccc1)n1nnc2ccccc21		agar			MIC90	>256 µg/mL
O=C(/C=C/c1ccc(Cl)cc1Cl)OC1CCN(CC(O)(Cn2cncn2)c2ccc(F)cc2F)CC1	0306392	broth dilution			MIC80	0.466 µM
CN(Cc1ccc(NS(=O)(=O)c2ccc([N+](=O)[O-])cc2)cc1)CC(O)(Cn1cncn1)c1ccc(F)cc1F	CAPA1	resazurin			MIC	1.91 µg/mL
COc1ccccc1C1SCC(=O)N1C(Cc1ccccc1)C(=O)O		broth dilution			EC50	79.55 µM

For reference, 7 entries again:

C[C@H]1[C@H](O)[C@@H](C)/C=C/C=C/C=C/C=C/C=C/C=C/C=C/[C@H](O[C@@H]2O[C@H](C)[C@@H](O)[C@H](N)[C@@H]2O)C[C@@H]2O[C@](O)(C[C@@H](O)C[C@@H](O)CC[C@H](O)[C@@H](O)C[C@@H](O)CC(=O)O[C@H]1C)C[C@H](O)[C@H]2C(=O)O ; method: broth dilution ; endpoint: MIC50 ; result: 0.5 µg/mL
COc1ccccc1C1SCC(=O)N1C(Cc1ccccc1)C(=O)O ; method: broth dilution ; endpoint: EC50 ; result: 79.55 µM
CCCCCOc1ccc(-c2cc(-c3ccc(C(=O)N[C@H]4C[C@@H](O)[C@@H](O)NC(=O)[C@@H]5[C@@H](O)[C@@H](C)CN5C(=O)[C@H]([C@H](O)CC(N)=O)NC(=O)[C@H]([C@H](O)[C@@H](O)c5ccc(O)c(OS(=O)(=O)O)c5)NC(=O)[C@@H]5C[C@@H](O)CN5C(=O)[C@H]([C@@H](C)O)NC4=O)cc3)no2)cc1 ; strain: RC-601 ; method: broth dilution ; endpoint: EC50 ; result: 0.5 µg/mL
Clc1ccc(C(c2ccccc2)N2CCN(CCn3cncn3)CC2)cc1 ; method: broth dilution ; endpoint: MFC ; result: 256 µg/mL
Cc1ccc(-c2c3c(N)c4c(nc3nc3c2c(C)nn3-c2ccccc2)CCCCC4)cc1 ; strain: CCC 124 ; method: broth dilution / absorbance ; endpoint: MIC100 ; result: 125 µg/mL
CC1CC(=O)N(c2ccc(F)cc2F)C1=O ; strain: CCC 124-2000 ; method: broth dilution / turbidity ; endpoint: MIC ; result: 250 µg/mL
CCCCN(Cc1cn(Cc2c(Cl)cccc2Cl)nn1)CC(O)(Cn1cncn1)c1ccc(F)cc1F ; endpoint: MIC80 ; result: 64 µg/mL